From PMC3511567 come the findings set out here.

The exact form of at least one protein or probe is not confirmed.

This data set has as its system YhcR-His (Staphylococcus aureus). As to the kind of experiment: EMSA. Conditions: YhcR 1-6 uM, competed by 100-fold unlabeled probe, poly(dI-dC), EMSA: 20 ul, 0.2 pmol DIG-DNA, 25 mM NaH2PO4 pH 8.0, 50 mM NaCl, 2 mM MgCl2, 1 mM DTT, 10% glycerol, room temperature 25 min, recombinant protein, residues 1-207, protein details: C-terminal His (pET24b NdeI/XhoI, implied), label: digoxigenin (DIG-ddUTP, terminal transferase), probe letters rebuilt from the primers and the genome. On the technique in general: A gel shift assay detects complexes by their altered migration in electrophoresis.

For the sequence “CATCTGAACCAATAATAATCGCCATAATAAGACTCCTTTTTACTTTAATTTTGAAATACCTTTCTTAAAATGTGACATATTTATTTGTAGGTTATGAAAATCTTGAGAAAAGGCTTTCAATTTGATTACGTTTAAATTATAAACATAAACAAACAATAAATCAACATAATATGTTTATAATATGTTTGTTTATGACGTATTTTCAAACAATAAGTGAACATTCATATTGTGGTGTTGTTTTAATTAGGTATTCGTCTGAAATTGTAGTAAAACTTTGTCGAGGTTCCCGTTGACATAAATTTGCATAAAAAATAGCCCATAAATGAATGCAAATTCACATTCACTTATGAGCATATAGATACATATTTTAACAATGCAGTTATACTTTTAA (double strand) [Plac (lacA upstream region, 397 bp)]”, the binding result (dose-dependent) was “binds”.

For the sequence “TATGAGTTATCTATTTAGTTGCCAAAGATAAAATAATAATGTTTAATAACATCATATAGAGTATGTTAGTTTTAAATGTCGAATATACGAATGTGCAAACAAAGTAATCGGTAGAAATTCAACATACATAGCGCCGTTTACTGTTAAGTATTCACATTACAGATGAAAAATATAAAATTCTACATAATCAAGACCATGATGTGTACTTGTTTAACTTATGACTCTATTTGTTTAACAATTGCGATAATGGTCTTTTTATTTTATGCGTATCATTCGTCATATTTTTTATGAGGAAGGAGAAATGATTATGTT (double strand) [PopuC (opuCA upstream region, 312 bp)]”, the binding result (two shifted bands) is on record as “binds”.
